In patent publication US20110274702A1 (INSTITUTE FOR RESEARCH IN BIOMEDICINE, published 2011) one finds EC50 data, which are given here for one molecule.

One assay addresses H5-HA (influenza A virus, H5 subtype). Description: ELISA on coated recombinant HA.
Another assay addresses H7-HA (influenza A virus, H7 subtype). The assay is described as follows: ELISA on coated recombinant HA.

B1: FI6 variant 2 (antibody, V domains shown)
VH: QVQLVQSGGGVVQPGRSLRLSCVASGFTFSTYAMHWVRQAPGRGLEWVAVISYDGNYKYYADSVKGRFSISRDNSNNTLHLEMNTLRTEDTALYYCAKDSQLRSLLYFEWLSQGYFDPWGQGTLVTVTS
VL: DIQMTQSPDSLAVSLGARATINCKSSQSVTFNYKNYLAWYQQKPGQPPKVLIYWASARESGVPDRFSGSGSGTDFTLTISSLQAEDVAVYYCQQHYRTPPTFGQGTKVEIK
Regarding B1, the concentration for a half-maximal effect (EC50) was 0.0145 µg/mL with H5-HA and 0.0314 µg/mL with H7-HA.
